Compound potency records, mixed from different reports. Data source: NIAID ChemDB in PubChem.

Shared fields: whole-cell or culture tests; organism: Varicella zoster virus; cell line: HEL; endpoint: EC50

An empty or dashed field is not shown.

smiles	strain or isolate	read by	value
CC1(C)[C@@H](CO)CC[C@@]1(C)Cn1nnc2c(Cl)ncnc21	OKA	cytopathic effect	>50 µg/mL
CC(C)Nc1ncnc2c1ncn2C1C[C@H](CO)[C@@H](CO)C1	07/1 (TK-)	-	>100 µg/mL
O=c1nc2oc(CCCOc3ccccc3)cc2cn1[C@H]1C[C@H](O)[C@@H](CO)O1	(TK+)/OKA	plaque count	77 µM
O=c1[nH]c(=O)n(C2C[C@H](CO)[C@@H](CO)C2)cc1I	07/1 (TK-)	-	>100 µg/mL
O=C1O/C(=C\Cn2cc(C(F)(F)F)c(=O)[nH]c2=O)C(O)=C1O	TK-	-	>50 µg/mL
CC1(C)[C@@H](CO)CC[C@@]1(C)Cn1cc(I)c(=O)[nH]c1=O	07/1 (TK-)	cytopathic effect	>50 µg/mL
C=Cc1cc([C@H]2C[C@H](O)[C@@H](CO)O2)c(F)cc1F	OKA	plaque count	>200 µM
O=C(O)P(=O)(O)O	Oka CF1603-resistant	cytopathic effect	27.8 µM
Nc1nc2c(ncn2CCC(CO)CO)c(=O)[nH]1	YS/R (TK-)	plaque count	29 µg/mL
C[C@H](Cn1cnc2c(=O)[nH]c(N)nc21)OCP(=O)(O)O	-	cytopathic effect	8.2 µM
Cc1cn([C@H]2C/C(=N\O)[C@@H](CO)O2)c(=O)[nH]c1=O	OKA	cytopathic effect	>200 µg/mL
O=c1[nH]cnc2c1ncn2C1C[C@H](CO)[C@@H](CO)C1	OKA	-	>100 µg/mL
OC[C@H]1O[C@@H](c2cc(C#CI)c(F)cc2F)C[C@@H]1O	YS/R (TK-)	plaque count	>20 µM
Nc1nc(N)c2ncn(C[C@H](CO)OCP(=O)(O)O)c2n1	-	cytopathic effect	2.1 µM
C=C[C@H](O)C1=C[C@@H](n2cnc3c(N)ncnc32)[C@H](O)[C@@H]1O	OKA YS	cytopathic effect	>50 µg/mL
CCCCCCCCc1cc2cn([C@H]3C[C@H](O)[C@@H](CO)O3)c(=O)nc2[nH]1	07/1 (TK-)	plaque count	>20 µM
Nc1nc(N)c2ncn(C[C@@H](CO)OCP(=O)(O)O)c2n1	-	cytopathic effect	2 µM
O=C1O/C(=C\Cn2ccc(=O)[nH]c2=O)C(O)=C1O	TK-	-	>50 µg/mL
COC(=O)[C@H](C)NP(=O)(OC[C@H]1O[C@@H](n2cc(/C=C/Br)c(=O)[nH]c2=O)C[C@@H]1O)Oc1ccccc1	YS (TK-)	cytopathic effect	>50 µM
O=c1[nH]c(=O)n([C@H]2C[C@H](O)[C@@H](CO)O2)cc1/C=C/Br	OKA (TK+)	plaque count	0.0048 µM
C/C=C/c1cccc(-c2cc3cn([C@H]4C[C@H](O)[C@@H](CO)O4)c(=O)nc3o2)c1	-	-	>12 µM
O=c1nc2oc(CCCC3OCCCO3)cc2cn1[C@H]1C[C@H](O)[C@@H](CO)O1	OKA	plaque count	>200 µM
CCOC(=O)/C=C/C=C/[C@H]1O[C@@H](n2ccc(=O)[nH]c2=O)[C@H](O)[C@@H]1O	YS	-	>120 µM
Nc1nc2c(ncn2CCC(CO)CO)c(=O)[nH]1	Oka penciclovir-resistant/B	cytopathic effect	7.9 µM
O=C(O)P(=O)(O)O	ULF PE 9/84 (TK+)	-	150–300 µM
O=c1[nH]c(=O)n([C@H]2C[C@H](O)[C@@H](CO)O2)cc1/C=C/Br	YS (TK-)	cytopathic effect	96 µM
OC[C@H]1O[C@@H](c2cc(C(O)C(Br)Br)c(F)cc2F)C[C@@H]1O	YS (TK+)	plaque count	>200 µg/mL
CCCCCCCCCCc1cc2cn([C@H]3C[C@H](O)[C@@H](CO)O3)c(=O)nc2n1C	YS	plaque count	8 µM
CCCCCCCOCCc1cc2cn([C@H]3C[C@H](O)[C@@H](CO)O3)c(=O)nc2o1	07/1 (TK-)	plaque count	>50 µM
OC[C@H]1O[C@@H](c2cc(C(O)CI)c(F)cc2F)C[C@@H]1O	YS/R (TK-)	plaque count	>50 µg/mL
CCC(C)C1NC(=O)N(CC2CCCCC2)C1=O	OKA (TK+)	plaque count	>4 µg/mL
CN1c2ccc([N+](=O)[O-])cc2C(C)(C)C12C=Cc1ccccc1O2	OKA (TK+)	plaque count	>9.9 µM
C#C[C@@H](O)C1=C[C@@H](n2cnc3c(N)ncnc32)[C@H](O)[C@@H]1O	07/1 YS/R (TK-)	cytopathic effect	35 µg/mL
O=C1OC(C(O)Cn2cc(C(F)(F)F)c(=O)[nH]c2=O)C(OCc2ccccc2)=C1OCc1ccccc1	TK+	-	>50 µg/mL
CCCCCOCCCCc1cc2cn([C@H]3C[C@H](O)[C@@H](CO)O3)c(=O)nc2o1	YS	plaque count	0.75 µM
Nc1nc2c(ncn2CC[C@H](O)CO)c(=O)[nH]1	ULF PE 9/84 (TK+)	-	425–600 µM
CC(C)C[C@H](NC(=O)n1nnc2ccccc21)C(=O)NC(c1ccccc1)c1ccccc1	(TK+)/OKA	plaque count	>0.13 µg/mL
Nc1nc2c(ncn2C[C@]2(CO)C[C@H]2CO)c(=O)[nH]1	07/1 (TK-)	plaque count	3 µg/mL
CCCCCCc1cc2cn([C@H]3C[C@H](O)[C@@H](CO)O3)c(=O)nc2[nH]1	07/1 (TK-)	plaque count	>50 µM
C#C[C@H](O)C1=C[C@@H](n2cnc3c(N)ncnc32)[C@H](O)[C@@H]1O	07/1 YS/R (TK-)	cytopathic effect	>50 µg/mL
Nc1nc2c(ncn2CC[C@@H](O)CO)c(=O)[nH]1	ULF PE 9/84 (TK+)	-	40–160 µM
C[C@H](Cn1cnc2c(N)nc(N)nc21)OCP(=O)(O)O	-	cytopathic effect	>30 µM
O=C(NC1CCCCC1)[C@H](Cc1ccccc1)NC(=O)n1nnc2ccccc21	07/1 (TK-)	plaque count	>3.2 µg/mL
O=c1c2ncn(COC(CO)CO)c2nc2[nH]c(-c3ccccc3)cn12	YS/R (TK-)	plaque count	1 µg/mL
Nc1nc(F)nc2c1ncn2[C@@H]1C=C(CO)[C@@H](O)[C@H]1O	07/1 YS/R (TK-)	cytopathic effect	7 µg/mL
CC(C)(C)[Si](OC[C@H]1C[C@@H](Cn2cnc3c(N)ncnc32)c2cn(Cc3ccccc3)nc21)(c1ccccc1)c1ccccc1	TK-	-	1.5 µM
CN1c2ccccc2C(C)(C)C12C=Cc1cc([N+](=O)[O-])ccc1O2	07/1 (TK-)	plaque count	3.1 µM
Nc1nc2c(ncn2C[C@H](CO)OCP(=O)(O)O)c(=O)[nH]1	-	cytopathic effect	0.056 µM
CN1c2ccccc2C(C)(C)C12C=Nc1c(ccc3ccccc13)O2	OKA (TK+)	plaque count	4.5 µM
CC1(C)[C@@H](CO)CC[C@@]1(C)Cn1cnc2c(Cl)ncnc21	OKA	cytopathic effect	>50 µg/mL
CCCCCCCCCCc1cc2cn([C@H]3C[C@H](O)[C@@H](CO)O3)c(=O)nc2n1CCC	07/1 (TK-)	plaque count	>5 µM
NC1=NC2C(C=CN2CC(CO)CCO)C(=O)N1	OKA	cytopathic effect	0.0043 µg/mL
OC[C@H]1O[C@@H](c2cc(C#CBr)c(F)cc2F)C[C@@H]1O	YS	plaque count	13 µM
Nc1nc(N)c2ncn(CCOCP(=O)(O)O)c2n1	Oka BVDU-resistant	cytopathic effect	4.3 µM
Nc1ncc2ncn(C[C@@H](CO)OCP(=O)(O)O)c2n1	-	cytopathic effect	121 µM
CC1(C)c2ccccc2N(c2ccccc2)C12C=Nc1c(ccc3ccccc13)O2	07/1 (TK-)	plaque count	>8.2 µM
CC1(C)[C@@H](CO)CC[C@@]1(C)Cn1nnc2c(N)ncnc21	OKA	cytopathic effect	>50 µg/mL

Repeating the final 8 entries:

| smiles | strain or isolate | read by | value |
|---|---|---|---|
| CC1(C)[C@@H](CO)CC[C@@]1(C)Cn1cnc2c(Cl)ncnc21 | OKA | cytopathic effect | >50 µg/mL |
| CCCCCCCCCCc1cc2cn([C@H]3C[C@H](O)[C@@H](CO)O3)c(=O)nc2n1CCC | 07/1 (TK-) | plaque count | >5 µM |
| NC1=NC2C(C=CN2CC(CO)CCO)C(=O)N1 | OKA | cytopathic effect | 0.0043 µg/mL |
| OC[C@H]1O[C@@H](c2cc(C#CBr)c(F)cc2F)C[C@@H]1O | YS | plaque count | 13 µM |
| Nc1nc(N)c2ncn(CCOCP(=O)(O)O)c2n1 | Oka BVDU-resistant | cytopathic effect | 4.3 µM |
| Nc1ncc2ncn(C[C@@H](CO)OCP(=O)(O)O)c2n1 | - | cytopathic effect | 121 µM |
| CC1(C)c2ccccc2N(c2ccccc2)C12C=Nc1c(ccc3ccccc13)O2 | 07/1 (TK-) | plaque count | >8.2 µM |
| CC1(C)[C@@H](CO)CC[C@@]1(C)Cn1nnc2c(N)ncnc21 | OKA | cytopathic effect | >50 µg/mL |

ECn is the concentration giving n% inhibition of infection, replication or growth. Rows are shuffled and stem from different studies. a–b is a range or a potency band.